Measured values from several laboratories, pooled; numbers as filed in NIAID ChemDB.

Common to all: enzyme or target tests; agent: HIV-1; target: Reverse transcriptase; read-out: Ki

Blank or dashed fields: not listed here. Lines come from different laboratories, so protocols vary.

smiles	strain or isolate	read by	changes	value
Cc1cc(C)cc(S(=O)(=O)c2c(C(=O)NCC(N)=O)[nH]c3ccc(Cl)c(F)c23)c1	-	RT activity / nucleotide incorporation	Y181C	2.6 µM
CN(C)c1nc(Cc2c(F)cccc2F)cc(=O)[nH]1	-	nucleotide incorporation	Y181I	3 µM
Nc1ccn([C@H]2CC[C@@H](COP(=O)(O)OP(=O)(O)OP(=O)(O)O)O2)c(=O)n1	-	nucleotide incorporation / radiometric	RT-Q151M	22 µM
C=Cc1cc(N(CC)CC)nc(S(C)(=O)=O)n1	-	nucleotide incorporation / radiometric	RT-Y181I	>400 µM
Nc1nc2c(ncn2[C@@H]2O[C@H](COP(=O)(O)OP(=O)(O)OP(=O)(O)O)[C@H]2CO)c(=O)[nH]1	-	-	-	0.9 µM
COc1ccccc1N1CCN(c2nc(Cc3c(F)cccc3F)c(C)c(=O)[nH]2)CC1	-	nucleotide incorporation	V106A	4.1 µM
NCCCCNc1nc(Cc2ccccc2)cc(=O)[nH]1	-	-	RT-V106A	>1000 µM
Cc1cn([C@H]2CC[C@@H](COP(=O)(O)OP(=O)(O)OP(=O)(O)O)O2)c(=O)[nH]c1=O	IIIB	nucleotide incorporation / radiometric	RT-1(IIIB)	0.025 µM
Nc1ccn([C@@H]2CS[C@H](COP(=O)(O)OP(=O)(O)OP(=O)(O)O)O2)c(=O)n1	-	nucleotide incorporation	RT-K65R	1.4 µM
Cc1cc(C)cc(S(=O)(=O)c2c(C(=O)NCCn3cccc3)[nH]c3ccc(Cl)c(F)c23)c1	-	RT activity / nucleotide incorporation	K103N	0.17 µM
O=c1cc(Cc2ccccc2)nc(SCCCCO)[nH]1	-	-	RT-L100I	200 µM
C=Cc1cc(N(C)C)nc(S(C)(=O)=O)n1	-	nucleotide incorporation / radiometric	RT-K103N	3.2 µM
O=P(O)(O)OP(=O)(O)O	-	nucleotide incorporation / radiometric	RT-Q151N	316 µM
O=c1cc(Cc2ccccc2)nc(NCCCCO)[nH]1	-	-	RT-Y188L	>1000 µM
Nc1nc2c(ncn2[C@H]2CC[C@@H](COP(=O)(O)OP(=O)(O)OP(=O)(O)O)O2)c(=O)[nH]1	-	nucleotide incorporation	-	0.02 µM

For reference, 2 entries again:

smiles,strain or isolate,read by,changes,value
O=c1cc(Cc2ccccc2)nc(NCCCCO)[nH]1,-,-,RT-Y188L,>1000 µM
Nc1nc2c(ncn2[C@H]2CC[C@@H](COP(=O)(O)OP(=O)(O)OP(=O)(O)O)O2)c(=O)[nH]1,-,nucleotide incorporation,-,0.02 µM